PubChem BioAssay AID624099 – ICCB-Longwood – 2012

- Assay: 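Knock-downs relieving repression by E2 of an HPV18 LCR luciferase reporter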 (primary screen)
- System: human C33A cervical carcinoma cells (HPV-negative) stably expressing BPV1 E2 and an HPV18 LCR luciferase reporter
- Knock-down reagent: siRNA pool against human genes, 40 nM
- Time to read-out: 72 h
- Measurement: 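HPV18 LCR reporter light per well, converted to plate-wise z-scores that exclude control wells, and averaged over triplicate plates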
- Reading the numbers: mean z-score and z-score: higher = stronger reporter signal, weaker E2 silencing
- Hit rule: 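Hit if mean z-score reaches 2 and two or more of three replicate z-scores also reach 2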
The whole screen tested about 21,000 reagents; shown is an unselected part. 497 of all reagents (2.4%) were called active. 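Higher z means weaker E2 silencing; only reporter increases were scored, and knock-downs that hurt cell survival may mask genuine repressor factors.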 Unmarked entries are inactive.

CBX8 — mean z-score = 0.18; z-score, replicate A = 0.29; z-score, replicate C = 0.07
NIPA2 — mean z-score = 1.05; z-score, replicate A = 1.46; z-score, replicate B = 0.92; z-score, replicate C = 0.77
TRIM55 — mean z-score = 0.59; z-score, replicate A = 0.25; z-score, replicate B = 1.11; z-score, replicate C = 0.39
HR — mean z-score = 0.9; z-score, replicate A = 1.21; z-score, replicate B = 0.67; z-score, replicate C = 0.83
VSTM2B-DT — mean z-score = -0.69; z-score, replicate A = -0.66; z-score, replicate B = -0.58; z-score, replicate C = -0.83
KCNQ4 — mean z-score = -0.67; z-score, replicate A = -0.52; z-score, replicate B = -0.6; z-score, replicate C = -0.88
RBM11 — mean z-score = -0.81; z-score, replicate A = -0.91; z-score, replicate B = -0.85; z-score, replicate C = -0.67

Laid out differently: entries from further up.
gene symbol,mean z-score,"z-score, replicate A","z-score, replicate B","z-score, replicate C"
HR,0.9,1.21,0.67,0.83
VSTM2B-DT,-0.69,-0.66,-0.58,-0.83

Next reagents follow:
THAP8 — mean z-score = -2.11; z-score, replicate A = -2.06; z-score, replicate B = -2.34; z-score, replicate C = -1.93
CLTB — mean z-score = -0.73; z-score, replicate A = -0.7; z-score, replicate B = -0.77; z-score, replicate C = -0.72
TOP1MT — mean z-score = 2.55 (active); z-score, replicate A = 3.02; z-score, replicate B = 2.51; z-score, replicate C = 2.13
PHKA1 — mean z-score = -1.08; z-score, replicate A = -0.9; z-score, replicate B = -1.31; z-score, replicate C = -1.04
LOC401367 (retired record) — mean z-score = -0.9; z-score, replicate A = -0.73; z-score, replicate B = -0.93; z-score, replicate C = -1.05
